In ChEMBL document CHEMBL1121419, “Synthesis and antitumor activity of cyclophosphamide analogues. 3. Preparation, molecular structure determination and anticancer screening of racemic cis- and trans-4-phenylcyclophosphamide” (1980):

How the values were obtained:
Mus musculus [1] = assay: Tested for test/Control evaluation incorporating mean survival time over 30 days at dosage of 125 mg/kg in male mice
Mus musculus [2] = assay: Tested for anticancer screening activity against mouse L1210 lymphoid leukemia for number of survivors on day 5 for each group of male mice(6) at 500 mg/kg
Mus musculus [3] = assay: Tested for anticancer screening activity against mouse L1210 lymphoid leukemia for number of survivors on day 5 for each group of female mice(6) at 15.63 mg/kg
Mus musculus [4] = assay: Tested for test/Control evaluation incorporating mean survival time over 30 days at dosage of 250 mg/kg in male mice
Mus musculus [5] = assay: Tested for anticancer screening activity against mouse L1210 lymphoid leukemia for number of survivors on day 5 for each group of female mice(6) at 62.50 mg/kg
Mus musculus [6] = assay: Tested for test/Control evaluation incorporating mean survival time over 30 days at 62.50 mg/kg
Mus musculus [7] = assay: Tested for test/Control evaluation incorporating mean survival time over 30 days at 62.50 mg/kg in male mice
Mus musculus [8] = assay: Tested for test/Control evaluation incorporating mean survival time over 30 days at 15.63 mg/kg
Mus musculus [9] = assay: Tested for anticancer screening activity against mouse L1210 lymphoid leukemia for number of survivors on day 5 for each group of female mice at 31.30 mg/kg
Mus musculus [10] = assay: Tested for anticancer screening activity against mouse L1210 lymphoid leukemia for number of survivors on day 5 for each group of female mice(6) at 125 mg/kg
Mus musculus [11] = assay: Tested for anticancer screening activity against mouse L1210 lymphoid leukemia for number of survivors on day 5 for each group of female mice(6) at 250 mg/kg
Mus musculus [12] = assay: Tested for test/Control evaluation incorporating mean survival time over 30 days at dosage of 125 mg/kg
Mus musculus [13] = assay: Tested for test/Control evaluation incorporating mean survival time over 30 days at dosage of 250 mg/kg
Mus musculus [14] = assay: Tested for test/Control evaluation incorporating mean survival time over 30 days at 31.30 mg/kg
Mus musculus [15] = assay: Tested for anticancer screening activity against mouse L1210 lymphoid leukemia for number of survivors on day 5 for each group of female mice(6) at 500 mg/kg
Mus musculus [16] = assay: Tested for test/Control evaluation incorporating mean survival time over 30 days at 25 mg/kg
Mus musculus [17] = assay: Tested for test/Control evaluation incorporating mean survival time over 30 days at 500 mg/kg
Mus musculus [18] = assay: Tested for test/Control evaluation incorporating mean survival time over 30 days at dosage of 62.50 mg/kg
Mus musculus [19] = assay: Tested for test/Control evaluation incorporating mean survival time over 30 days at dosage of 31.30 mg/kg
Mus musculus [20] = assay: Anticancer screening activity against mouse L1210 lymphoid leukemia for number of survivors on day 5 for each group of 6 female mice(6) at 500 mg/kg
Mus musculus [21] = assay: Tested for test/Control evaluation incorporating mean survival time over 30 days at dosage of 500 mg/kg
Mus musculus [22] = assay: Anticancer screening activity against mouse L1210 lymphoid leukemia for number of survivors on day 5 for each group of female mice(6) at 250 mg/kg
Mus musculus [23] = assay: Anticancer screening activity against mouse L1210 lymphoid leukemia for number of survivors on day 5 for each group of female mice(6) at 15.63 mg/kg
Mus musculus [24] = assay: Tested for test/Control evaluation incorporating mean survival time over 30 days at 250 mg/kg
Mus musculus [25] = assay: Tested for test/Control evaluation incorporating mean survival time over 30 days at 125 mg/kg
Mus musculus [26] = assay: Anticancer screening activity against mouse L1210 lymphoid leukemia for number of survivors on day 5 for each group of female mice(6) at 62.50 mg/kg
Mus musculus [27] = assay: Anticancer screening activity against mouse L1210 lymphoid leukemia for number of survivors on day 5 for each group of female mice(6) at 31.30 mg/kg
Mus musculus [28] = assay: Anticancer screening activity against mouse L1210 lymphoid leukemia for number of survivors on day 5 for each group of female mice(6) at 125 mg/kg

O=[P@]1(N(CCCl)CCCl)N[C@H](c2ccccc2)CCO1
T/C (Mus musculus [1]): 106
Toxicity day survivors (Mus musculus [2]): 5
Toxicity day survivors (Mus musculus [3]): 6
T/C (Mus musculus [4]): 120
Toxicity day survivors (Mus musculus [5]): 6
T/C (Mus musculus [6]): 106
T/C (Mus musculus [7]): 104
T/C (Mus musculus [8]): 100
Toxicity day survivors (Mus musculus [9]): 6
Toxicity day survivors (Mus musculus [10]): 6
Toxicity day survivors (Mus musculus [11]): 5
T/C (Mus musculus [12]): 124
T/C (Mus musculus [13]): 149
T/C (Mus musculus [14]): 100
Toxicity day survivors (Mus musculus [15]): 3

O=[P@@]1(N(CCCl)CCCl)N[C@@H](c2ccccc2)CCO1.O=[P@@]1(N(CCCl)CCCl)N[C@H](c2ccccc2)CCO1
T/C (Mus musculus [16]): 94
T/C (Mus musculus [17]): 108
T/C (Mus musculus [18]): 109
T/C (Mus musculus [19]): 106
Toxicity day survivors (Mus musculus [20]): 5
Toxicity day survivors (Mus musculus [5]): 6
T/C (Mus musculus [21]): 204
T/C (Mus musculus [6]): 105
Toxicity day survivors (Mus musculus [22]): 6
Toxicity day survivors (Mus musculus [23]): 6
T/C (Mus musculus [8]): 103
Toxicity day survivors (Mus musculus [10]): 6
T/C (Mus musculus [24]): 122
Toxicity day survivors (Mus musculus [11]): 6
T/C (Mus musculus [25]): 120
Toxicity day survivors (Mus musculus [26]): 6
T/C (Mus musculus [13]): 105
Toxicity day survivors (Mus musculus [27]): 6
Toxicity day survivors (Mus musculus [15]): 4
Toxicity day survivors (Mus musculus [28]): 6
